Human monoclonal antibodies against the spike receptor-binding domain (heavy:light variable regions). IC50 against pseudoviruses bearing the spike of naturally observed variants; lower = stronger; >10 µg/ml means not reached at the top dose. No active / inactive call. The stated detection limit is 0.0005 µg/ml; values near or below 0.001 µg/ml lie at the floor of the assay.
B1: BD58-0491 (protein)
chain 1: EVQLVQSGAEVKKPGESLRISCKVSGYNFASFWINWVRQMPGKGLEWMGRIDPSDSYTDYSPSFQGHVTVSADKSITTAYLLWSSLKASDTAMYYCARGGPSTYDVGGYPTGWFDPWGQGTLVTVSS
chain 2: EIVLTQSPGTLSLSPGERATLSCRASQSVRRSYLAWYQQKPGQAPRLLIYGASSRATGIPDRFSGSGSGTDFTLTISRLEPEDFAVYYCQQYGRSPPLTFGPGTKVDIK
B2: BD58-0473 (protein)
chain 1: QVQLVQSGAEVKKPGASVKVSCKVSGYTLTELSMHWVRQAPGKGLEWMGGFDPELGETIYAQKFQGRVTMTEDTSTDTAYMQLSSLRSEDTAVYYCAIDFHYYDSTGESDYWGQGTLVTVSS
chain 2: QSVLTQPPSVSAAPGQKVTISCSGSSSSIRNNYVSWYQQLPGTAPKLLIYDNNKRPSGIPDRFSGSKSGPSATLGITGLQTGDEADYYCGTWDSSLSAWVFGGGTKLTVL
B3: BD58-0451 (protein)
chain 1: QVQLQQWGAGLLKPSETLSLTCAVYGGSFSNYFWSWIRQPPGKGLEWIGEINHSGSTNYNPSLKSRVTISVDTSKNQFSLKLSSVTAADTAVYYCARVNDFGDYEYWYFDLWGRGTLVTVSS
chain 2: QSALTQPASVSGSPGQSITISCTGTSSDVGVYNYVSWYQQHPGKAPKLMIYDVSNRPSGVPDRFSGSKSGNTASLTISGLQAEDEADYYCSSYTSSSTLYVFATGTKVTVL
B4: BD56-282 (protein)
chain 1: QVTLRESGPALVKPTQTLTLTCTFSGFSLSTSGMCVSWIRQPPGKALEWLALIDWDDDKYYSTSLKTRLTISKDTSKNQVVLTMTNMDPVDTATYYCAHIRGDFYYYGMDVWGQGTTVTVSS
chain 2: SYELTQPPSVSVSPGQTARITCSGDALPNQYAYWYQQKPGQAPVLVIYKDSERPSGIPERFSGSSSGTTVTLTISGVQAEDEADYYCQSSDTNTPVVFGGGTKLTVL
B5: BD58-0463 (protein)
chain 1: QVQLVQSGAEVKKPGSSVKVSCKVSGGTFSSYAISWVRQAPGQGLEWMGGIIPIFDTTHYAQKFQGRLTITADESTSAVYMELSSLRSEDTAVYYCARKGRGVRGITAMDVWGKGTTVTVSS
chain 2: DIQMTQSPSSLSASVGDRVTITCQASQDISNYLNWYQQKPGKAPKLLIYDASNLETGVPSRFSGGGSGTDFTFTISSLQPEDIATYYCQQYDNLPTFGGGTKVEIK

biological target: SARS-CoV-2 Omicron BA.1 spike pseudovirus; assay: pseudovirus neutralization IC50; higher = weaker neutralization
Protocol: (§1)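 Single-round VSV luciferase pseudovirus mixed with antibody dilutions for 1 h and put on Huh-7 cells for about a day; IC50 from the dose curve.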

Binder | pseudovirus neutralization IC50 [µg/mL]
B1 | 0.447
B2 | > 10
B3 | > 10
B4 | 0.00122
B5 | 0.000412

biological target: SARS-CoV-2 Omicron BA.2 spike pseudovirus; assay: as above
Protocol: as §1

Binder | pseudovirus neutralization IC50 [µg/mL]
B1 | 0.0167
B2 | 0.000386
B3 | 0.00681
B4 | 0.00774
B5 | 0.000207

biological target: SARS-CoV-2 Omicron BA.2.75 spike pseudovirus; assay: as above
Protocol: as §1

Binder | pseudovirus neutralization IC50 [µg/mL]
B1 | > 10
B2 | 0.263
B3 | > 10
B4 | 0.0166
B5 | 0.000941

biological target: SARS-CoV-2 Omicron BA.2.75.2 spike pseudovirus; assay: as above
Protocol: as §1

Binder | pseudovirus neutralization IC50 [µg/mL]
B1 | > 10
B2 | 0.483
B3 | > 10
B4 | 0.0294
B5 | > 10

biological target: SARS-CoV-2 Omicron BA.5 spike pseudovirus; assay: as above
Protocol: as §1

Binder | pseudovirus neutralization IC50 [µg/mL]
B1 | > 10
B2 | 0.00733
B3 | > 10
B4 | 0.0108
B5 | 0.0167

biological target: SARS-CoV-2 Omicron BM.1.1.1 spike pseudovirus; assay: as above
Protocol: as §1

Binder | pseudovirus neutralization IC50 [µg/mL]
B1 | > 10
B2 | > 10
B3 | > 10
B4 | 0.0197
B5 | > 10

biological target: SARS-CoV-2 Omicron BQ.1.1 spike pseudovirus; assay: as above
Protocol: as §1

Binder | pseudovirus neutralization IC50 [µg/mL]
B1 | > 10
B2 | 0.288
B3 | > 10
B4 | 4.3
B5 | 0.13

biological target: SARS-CoV-2 Omicron BR.2 spike pseudovirus; assay: as above
Protocol: as §1

Binder | pseudovirus neutralization IC50 [µg/mL]
B1 | > 10
B2 | 0.0653
B3 | > 10
B4 | 0.0175
B5 | 0.0104

biological target: SARS-CoV-2 Omicron CA.1 spike pseudovirus; assay: as above
Protocol: as §1

Binder | pseudovirus neutralization IC50 [µg/mL]
B1 | > 10
B2 | 0.304
B3 | > 10
B4 | 0.0283
B5 | > 10

biological target: SARS-CoV-2 Omicron XBB spike pseudovirus; assay: as above
Protocol: as §1

Binder | pseudovirus neutralization IC50 [µg/mL]
B1 | > 10
B2 | > 10
B3 | > 10
B4 | 0.388
B5 | > 10

biological target: SARS-CoV-2 early D614G spike pseudovirus; assay: as above
Protocol: as §1

Binder | pseudovirus neutralization IC50 [µg/mL]
B1 | > 10
B2 | > 10
B3 | > 10
B4 | > 10
B5 | > 10

From the supplement of paper PMC9931576
